Reference: patent publication US20090053194A1, “METHOD OF TREATING OR […] IMMUNOLOGICAL RESPONSES TO A REACTIVE CHEMICAL OR BIOLOGICAL OR TOXIC AGENT” (published 2009)

Test system: skin surface with redness, induration, swelling and erythema due to exposure to poison ivy
Assay: Topical treatment of poison ivy skin reaction
Conditions: topical medicament containing 2% by weight Tβ4, after one day, same skin surface

thymosin beta 4
erythema in the treated area compared to the untreated area: significantly reduced
induration in the treated area compared to the untreated area: significantly reduced
itching of the treated area compared to the untreated area: significantly less
